Pooled drug test results. Numbers come from NIAID ChemDB, via PubChem.

Shared fields: tests in culture; species: Mycobacterium smegmatis; endpoint: MIC

An empty or dashed field is not shown.

structure	strain or isolate	read by	value
CC(C)c1c(O)cc([C@H](N=C(N)N)C(=O)NCC(=O)O)cc1O	mc2155	visual reading	20 µg/mL
CC(CC(=O)N(C)O)CP(=O)(O)O	ATCC 607	broth dilution / turbidity	>250 µM
COc1ccc(Nc2cc(=O)n3c(-c4cccc([N+](=O)[O-])c4)csc3n2)cc1S(=O)(=O)O		broth dilution / visual reading	>800 µg/mL
Cc1c(N2CC(N)C2)c(F)cn2c(=O)c(C(=O)O)cc(C3CC3)c12.Cl	ATCC114		0.78 µg/mL
CSC(=S)N/N=C(\C)c1ccc(OCc2ccc(F)cc2F)cc1	mc2155	resazurin / absorbance	>100 µM
CC1CN(c2nc3c(cc2F)c(=O)c(C(=O)O)cn3C(C)(C)C)CCN1	ATCC 19420		0.06 µg/mL
COc1ccc(Nc2cc(=O)n3c(-c4ccc(N)cc4)csc3n2)cc1S(=O)(=O)O		broth dilution / visual reading	50 µg/mL
CC[C@@H](CO)NCCN[C@@H](CC)CO	mc2155	resazurin	2 µM
CC(C)=CCC/C(C)=C/CC/C(C)=C/CO	mc2 155 / ATCC 700084	broth dilution	64 µg/mL
NCCCCNCCCN	mc2155	visual reading	>500 µg/mL
Cc1c(N2CCC(N)CC2)c(F)cn2c(=O)c(C(=O)O)cc(C3CC3)c12	ATCC114		1.56 µg/mL
COc1ccc(-c2nn(-c3ccccc3)cc2/C=C/c2nc3sccn3c(=O)c2-c2ccc(C#N)cc2)cc1	mc2155	colony count	78 µg/mL
N#CC(C#N)=NNc1cccc(Cl)c1	MC^2 552 (ciprofloxacin-resistant)		30 µg/mL
Cc1c(NCCN)c(F)cn2c(=O)c(C(=O)O)cc(C3CC3)c12.Cl	ATCC114		25 µg/mL
CCN(CC)CCCC(C)Nc1ccnc2cc(Cl)ccc12	mc2155	resazurin	320 µM
COC1CN(c2c(F)cn3c(=O)c(C(=O)O)cc(C4CC4)c3c2C)CC1N.Cl	ATCC114		0.2 µg/mL
Nc1ccc(-c2csc3nc(Nc4ccc(S(=O)(=O)O)cc4)cc(=O)n23)cc1		broth dilution / visual reading	100 µg/mL
NNC(=O)c1ccncc1	mc2155	resazurin	125 µM
Cc1c(N2CC3CCCN(C)C3C2)c(F)cn2c(=O)c(C(=O)O)cc(C3CC3)c12.Cl	ATCC114		0.1 µg/mL
CO[C@H]1/C=C/O[C@@]2(C)Oc3c(C)c(O)c4c(O)c(c(/C=N/N5CCN(C)CC5)c(O)c4c3C2=O)NC(=O)/C(C)=C\C=C\[C@H](C)[C@H](O)[C@@H](C)[C@@H](O)[C@@H](C)[C@H](OC(C)=O)[C@@H]1C		broth dilution / visual reading	7.8 µg/mL
COCOC1CCN(c2c(F)cn3c(=O)c(C(=O)O)cc(C4CC4)c3c2C)CC1	ATCC114		0.78 µg/mL
COc1ccc(Nc2cc(=O)n3c(-c4ccc([N+](=O)[O-])cc4)csc3n2)cc1S(=O)(=O)O		broth dilution / visual reading	>800 µg/mL
NC(=O)OCC1=C(C(=O)O)N2C(=O)[C@@](O)(NC(=O)Cc3cccs3)[C@H]2SC1	mc2155	resazurin	16 µg/mL
COC(=O)[C@H]1[C@H]2C[C@@H]3c4[nH]c5cc(OC)ccc5c4CCN3C[C@H]2C[C@@H](OC(=O)c2cc(OC)c(OC)c(OC)c2)[C@@H]1OC	mc2 155 / ATCC 700084	broth dilution	256 µg/mL
CCN1CCN(c2c(F)cc3c(=O)c(C(=O)O)cn(C4CC4)c3c2C(F)(F)F)CC1	ATCC 19420		2 µg/mL
NC(N)=N[C@H](C(=O)O)c1cc(O)c(CO)c(O)c1	mc2155	visual reading	>500 µg/mL
Cc1c(N2CCC(CN)CC2)c(F)cn2c(=O)c(C(=O)O)cc(C3CC3)c12.Cl	ATCC114		0.2 µg/mL
NCC[C@H](O)C(=O)N[C@@H]1C[C@H](N)[C@@H](O[C@H]2O[C@H](CN)[C@@H](O)[C@H](O)[C@H]2O)[C@H](O)[C@H]1O[C@H]1O[C@H](CO)[C@@H](O)[C@H](N)[C@H]1O	A28314		0.25 µg/mL
Cc1ccccc1-c1nn(-c2ccccc2)cc1/C=C/c1nc2sccn2c(=O)c1-c1ccc(C(F)(F)F)cc1	mc2155	colony count	71 µg/mL
NC1CCN(c2nc3c(cc2F)c(=O)c(C(=O)O)cn3-c2ccc(F)cc2F)C1	ATCC 19420		0.13 µg/mL
Cc1cccc(-c2nn(-c3ccccc3)cc2/C=C/c2nc3sccn3c(=O)c2-c2ccc(C#N)cc2)c1	mc2155	colony count	9 µg/mL
CC[n+]1c(-c2ccccc2)c2cc(N)ccc2c2ccc(N)cc21	PMN1 LFR		32 µg/mL
COc1ccc(-n2cc(/C=C/c3nc4sccn4c(=O)c3-c3ccc(C#N)cc3)c(-c3ccccc3)n2)cc1	mc2155	colony count	620 µg/mL
Cc1c(N2C=NCC2)c(F)cn2c(=O)c(C(=O)O)cc(C3CC3)c12.Cl	ATCC114		25 µg/mL

A second listing of 3 rows from above:

structure	strain or isolate	read by	value
COCOC1CCN(c2c(F)cn3c(=O)c(C(=O)O)cc(C4CC4)c3c2C)CC1	ATCC114		0.78 µg/mL
CC(C)c1c(O)cc([C@H](N=C(N)N)C(=O)NCC(=O)O)cc1O	mc2155	visual reading	20 µg/mL
NNC(=O)c1ccncc1	mc2155	resazurin	125 µM

Lines come from different laboratories, so protocols vary.